# ChEMBL document CHEMBL2424540, “Synthesis and pharmacological evaluation of novel 1-(piperidin-4-yl)-1H-benzo[d]imidazol-2(3H)-one derivatives as potential antimicrobial agents” (2013)
# This is a selection: effects in other tests are not listed, and their absence says nothing.
# Key:
# [1] = system: Escherichia coli; test: Antibacterial activity against Escherichia coli MTCC 443 at 50 mg/ml after 24 hrs by disk agar diffusion technique
# [2] = system: Aspergillus clavatus; test: Antifungal activity against Aspergillus clavatus MTCC 1323 at 50 mg/ml after 24 hrs by disk agar diffusion technique
# [3] = system: Staphylococcus aureus; test: Antibacterial activity against Staphylococcus aureus MTCC 96 at 50 mg/ml after 24 hrs by disk agar diffusion technique
# [4] = system: Pseudomonas aeruginosa; test: Antibacterial activity against Pseudomonas aeruginosa MTCC 424 at 50 mg/ml after 24 hrs by disk agar diffusion technique
# [5] = system: Streptococcus pyogenes; test: Antibacterial activity against Streptococcus pyogenes MTCC 442 at 50 mg/ml after 24 hrs by disk agar diffusion technique
# [6] = system: Candida albicans; test: Antifungal activity against Candida albicans MTCC 227 at 50 mg/ml after 24 hrs by disk agar diffusion technique
SMILES,diameter of the inhibition zone (DIZ) [1] [mm],diameter of the inhibition zone (DIZ) [2] [mm],diameter of the inhibition zone (DIZ) [3] [mm],diameter of the inhibition zone (DIZ) [4] [mm],diameter of the inhibition zone (DIZ) [5] [mm],diameter of the inhibition zone (DIZ) [6] [mm]
CCn1c(=O)n(C2CCN(C3CCc4cc(OC)c(OC)cc43)CC2)c2ccc(Cl)cc21 (centres undefined),13,18,19,10,16,19
CCCn1c(=O)n(C2CCN(C3CCc4cc(OC)c(OC)cc43)CC2)c2ccc(Cl)cc21 (centres undefined),19,25,13,9,11,18
CCCCn1c(=O)n(C2CCN(C3CCc4cc(OC)c(OC)cc43)CC2)c2ccc(Cl)cc21 (centres undefined),11,24,15,11,14,19
COc1cc2c(cc1OC)C(N1CCC(n3c(=O)n(CC(C)C)c4cc(Cl)ccc43)CC1)CC2 (centres undefined),13,14,12,12,12,17
